Results of unrelated studies side by side (data: NIAID ChemDB).

Shared fields: toxicity to cultured cells; cells: MT-4; measure: CC50

CCn is the concentration with n% toxicity to the cells. Lines come from different laboratories, so protocols vary.

structure,value
CCOCn1c(Cc2ccccc2)c(-c2ccccc2)c(=O)[nH]c1=O,>100 µM
CC(C)[C@H](NC(=O)N(C)Cc1cncs1)C(=O)N[C@@H](Cc1ccccc1)[C@H](O)CN1CCN(Cc2cncs2)C[C@H]1C(=O)NC(C)(C)C,>100 µM
COc1cc(Br)cnc1NC(=S)NCCc1c(F)cccc1F,>20.9 µg/mL
Nc1ccn([C@@H]2O[C@H](CO)C[C@@H]2F)c(=O)n1,117 µM
[O-][n+]1nc2c(-c3ccccc3)cnn2c2ccccc21,>200 µM
CC(C)c1nc(CN(C)C(=O)N[C@H](C(=O)N[C@@H](Cc2ccccc2)[C@H](O)CN2CCN(Cc3cncs3)C[C@H]2C(=O)NC(C)(C)C)C(C)C)cs1,>100 µM
C/C=C1/C(=O)NC(=O)N1[C@H]1C[C@H](N=[N+]=[N-])[C@@H](CO)O1,~100 µM
[O-][n+]1nc2ccnn2c2cc(Cl)ccc21,>200 µM
OCC(O)C(O)C(O)c1nnc2sc(-c3ccc(Cl)c(Cl)c3)nn12,97.17 µg/mL
O=S(=O)(O)c1cc(S(=O)(=O)O)c2cc(OS(=O)(=O)c3cccc4c(S(=O)(=O)Oc5ccc6cc(S(=O)(=O)O)cc(S(=O)(=O)O)c6c5)cccc34)ccc2c1,>100 µM
Nc1nc2c(ncn2[C@H]2C=C[C@@H](OCP(=O)(O)O)C2)c(=O)[nH]1,153 µM
N#C/C(=C/c1ccccc1Cl)n1nnc2ccccc21,2 µM
Fc1cccc(F)c1CCNC(=S)Nc1ccccn1,>5 µg/mL
O=[N+]([O-])c1ccc2c(c1)[n+]([O-])nc1ccnn12,39 µM
CCCCCCCCCCCCCC(=O)OC[C@H]1O[C@@H](n2cnc3c(N)ncnc32)[C@@H]1CO,4 µg/mL
CC(C)(C)[Si](C)(C)OCC1O[C@@H](NC(=O)NC(=O)c2ccccc2)C(O[Si](C)(C)C(C)(C)C)C12OS(=O)(=O)C=C2N,14 µM
Fc1cccc(F)c1CCNC(=S)Nc1ncc(Cl)cc1Cl,>24.2 µg/mL
CCOCn1c(Cc2ccccc2)c(C(C)C)c(=O)[nH]c1=O,>100 µM
N#C/C(=C\c1c(Cl)cccc1Cl)n1nnc2ccccc21,5 µM
COc1ccccc1N1CCN(c2c(F)cc3c(=O)c(C(=O)O)cn(C)c3c2CN(C)C)CC1,3.5 µM
Nc1ccn([C@@H]2O[C@H](CO)[C@@H](F)[C@@H]2F)c(=O)n1,>500 µM
CCOC(NC(=S)Nc1ccccn1)C(=O)c1ccccc1Cl,>200 µM
Cc1nc(COC(=O)N[C@H](C(=O)N[C@@H](Cc2ccccc2)[C@H](O)CN2CCN(Cc3ccc4c(c3)OCO4)C[C@H]2C(=O)NC(C)(C)C)C(C)C)cs1,56 µM
N#C/C(=C\c1ccc(Cl)c(Cl)c1)n1nnc2ccccc21,5.8 µM
Fc1cccc(F)c1CCNC(=S)Nc1ncc(Br)cc1Cl,15.7 µg/mL
[O-][n+]1nc2c(Br)cnn2c2ccccc21,>200 µM
N#C/C(=C\c1cc(F)cc(F)c1)n1nnc2ccccc21,2 µM
CCCc1c(Sc2ccccc2)n(COCCO)c(=O)[nH]c1=O,200 µM
N#Cc1cnn2c1nnc1cc([N+](=O)[O-])ccc12,1.5 µM
Cc1ccc(S(=O)(=O)N2C(=O)CSC2c2ccc(C(C)C)cc2)cc1,>125 µM
[N-]=[N+]=N[C@H]1[C@@H](F)[C@H](n2ccc(=O)[nH]c2=O)O[C@@H]1CO,46 µM
Nc1ncnc2c1ncn2[C@H]1C=C[C@@H](OCP(=O)(O)O)O1,>600 µM
CC(C)[C@H](NC(=O)OCc1cncs1)C(=O)N[C@@H](Cc1ccccc1)[C@H](O)CN1CCN(Cc2ccccc2)C[C@H]1C(=O)NC(C)(C)C,53 µM
O=C(O)/C(=C\c1ccc(C(F)(F)F)cc1)n1nnc2ccccc21,>100 µM
O=c1cc(Sc2ccccc2)n(COCCO)c(=O)[nH]1,>500 µM
N#Cc1c(-c2ccc(Cl)cc2)c2c(n([C@@H]3O[C@H](CO)[C@@H](O)[C@H](O)[C@H]3O)c1=S)-c1ccccc1C2,3.01 µM
CCOC(=O)c1cnn2c1n[n+]([O-])c1cc([N+](=O)[O-])ccc12,1.3 µM
Nc1ncnc2c1ncn2[C@@H]1O[C@H](CO)[C@@H]1O,>10 µg/mL
CCn1cc(C(=O)O)c(=O)c2cc(F)c(N3CCN(c4ccccc4OC)CC3)c(OC(F)F)c21,5.4 µM
[N-]=[N+]=N[C@H]1C[C@@H](CO)O[C@H]1n1cnc2c(N)ncnc21,625 µM
C=C1[C@H](n2cnc3c(N)ncnc32)O[C@@H]1CO,11 µg/mL
O=C(c1ccccc1Cl)C(O)NC(=S)Nc1ccccn1,>400 µM
CCN(CC)CCCC(C)Nc1ccnc2cc(Cl)ccc12,46.3 µM
Cn1c2ccccc2c(=O)c2c(O)cccc21,15 µg/mL
CC(C)CCC[C@@H](C)[C@H]1CC[C@H]2[C@@H]3CC[C@H]4C[C@@H](CCC=C(c5cc(Cl)c(O)c(C(=O)O)c5)c5cc(Cl)c(O)c(C(=O)O)c5)CC[C@]4(C)[C@H]3CC[C@]12C,>300 µM
CC1COc2c(N3CCN(C)CC3)c(F)cc3c(=O)c(C(=O)O)cn1c23,>200 µM
Cc1cc(Br)cnc1NC(=S)NCCc1c(F)cccc1F,>25 µg/mL
Nc1ncnc2c1ncn2[C@H]1C[C@@H](CO)O1,8 µg/mL

Repeating the final 3 entries:

{"structure": "CC1COc2c(N3CCN(C)CC3)c(F)cc3c(=O)c(C(=O)O)cn1c23", "value": ">200 µM"}
{"structure": "Cc1cc(Br)cnc1NC(=S)NCCc1c(F)cccc1F", "value": ">25 µg/mL"}
{"structure": "Nc1ncnc2c1ncn2[C@H]1C[C@@H](CO)O1", "value": "8 µg/mL"}